According to patent US10947274:

Target: rat α9α10 nAChR (rat), P43144
Assay: cell-based or functional assay

B1: [C3 Sec;C12Sec] RgIA (peptide)
peptide: GCUSDPRCRYRUR
modifications: not checked
- % block at 10 nM: 81.9%
- IC50, block of the acetylcholine response (Xenopus oocytes): < 10 nM
